Source: ChEMBL document CHEMBL1687745 (Antimicrob Agents Chemother, 2009)
Converted amounts (≈) assume the structure as drawn.

What was measured:
Bacillus anthracis [1] = assay: Antimicrobial activity against Bacillus anthracis Ames spores by broth microdilution method
Bacillus anthracis [2] = assay: Bactericidal activity against Bacillus anthracis Sterne vegetative forms assessed as reduction in bacterial CFU at 4 X MIC after 24 hrs by time-kill analysis relative to untreated control
Yersinia pestis = assay: Bactericidal activity against pgm, pCD1 gene-deficient Yersinia pestis KIM assessed as reduction in bacterial CFU at 4 X MIC after 24 hrs by time-kill analysis relative to untreated control
Bacillus anthracis [3] = assay: Antimicrobial activity against Bacillus anthracis Sterne spores by broth microdilution method; type: functional

| SMILES | MBC (Bacillus anthracis [1]) | fold change (FC) (Bacillus anthracis [2]) | fold change (FC) (Yersinia pestis) | MIC (Bacillus anthracis [3]) | MIC (Bacillus anthracis [1]) |
| --- | --- | --- | --- | --- | --- |
| C(=C\c1cc2ccc(C3=NCCN3)cc2[nH]1)/c1cc2ccc(C3=NCCN3)cc2[nH]1 | 1.6 µg/mL (≈ 4.06 µM) | >=3 | >=3 |  |  |
| c1cc2cc(-c3ccc(-c4cc5ccc(C6=NCCN6)cc5[nH]4)cc3)[nH]c2cc1C1=NCCN1 |  | >=3 | >=3 | 0.2 µg/mL (≈ 0.45 µM) | 0.2 µg/mL (≈ 0.45 µM) |
